Compound potency records, mixed from different reports. Data source: NIAID ChemDB in PubChem.

All rows: growth or infection tests; species: Herpes simplex virus 1; read by: ELISA; read-out: EC50

ECn: concentration that inhibits the pathogen or its effect by n%. Conditions beyond the fields shown may differ between rows.

COC(=O)[C@H](C)NP(=O)(OC[C@@H]1C[C@]12C[C@@H]2n1cnc2c(N)ncnc21)Oc1ccccc1 ; cell line: BSC-1 ; result: 7 µM
Nc1nc2c(ncn2[C@H]2C[C@]23C[C@@H]3CO)c(=O)[nH]1 ; cell line: BSC-1 ; result: >100 µM
C[C@H]1O[C@@H](n2cc(C(N)=S)c3c(N)ncnc32)[C@H](O)[C@@H]1O ; result: 2.5 µM
NC(=S)c1c(N)n(COC(CO)CO)c2ncnc(N)c12 ; cell line: HFF ; result: >100 µM
COC(=O)[C@H](C)NP(=O)(OC[C@@H]1C[C@]12C[C@@H]2n1cnc2c(N)ncnc21)Oc1ccccc1 ; cell line: BSC-1 ; result: 7 µM
N#Cc1c(N)n(Cc2ccc(Br)cc2)c2ncnc(N)c12 ; cell line: HFF ; strain: KOS ; result: >100 µM
Nc1nc2c(ncn2[C@H]2C[C@@]23C[C@@H]3CO)c(=O)[nH]1 ; cell line: BSC-1 ; result: >100 µM
N#Cc1c(Br)n(COCCO)c2ncnc(N)c12 ; cell line: HFF ; result: >100 µM
Nc1nc2c(ncn2[C@H]2C[C@@]23C[C@H]3CO)c(=O)[nH]1 ; cell line: BSC-1 ; result: >50 µM
COC(=O)[C@H](C)NP(=O)(OC[C@H]1C/C1=C\n1cnc2c(=O)[nH]c(N)nc21)Oc1ccccc1 ; cell line: BSC-1 ; result: >100 µM
N#Cc1c(N)n(COC(CO)CO)c2ncnc(N)c12 ; cell line: HFF ; result: >100 µM
COC(=O)[C@H](C)NP(=O)(OC[C@H]1C/C1=C/n1cnc2c(=O)[nH]c(N)nc21)Oc1ccccc1 ; cell line: BSC-1 ; result: >100 µM
N#Cc1c(Br)n([C@@H]2O[C@H](CO)[C@@H](O)[C@H]2O)c2ncnc(N)c12 ; cell line: HFF ; result: 1.5 µM
OC[C@H]1O[C@@H](n2cnc3cc(Cl)c(Cl)cc32)[C@H](O)[C@@H]1O ; cell line: HFF ; strain: KOS ; result: >30 µM
Nc1nc(NC2CC2)c2ncn(C=C3CC3CO)c2n1 ; cell line: BSC-1 ; result: 15 µM
NC(=S)c1c(N)n(COCCO)c2ncnc(N)c12 ; cell line: HFF ; result: >100 µM

The last 2 rows once more:

{"compound": "Nc1nc(NC2CC2)c2ncn(C=C3CC3CO)c2n1", "cell line": "BSC-1", "result": "15 µM"}
{"compound": "NC(=S)c1c(N)n(COCCO)c2ncnc(N)c12", "cell line": "HFF", "result": ">100 µM"}